# Positions that govern dimerization of the HIV-1 5' RNA

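Randomly mutated transcripts starting with one, two or three G (1G, 2G, 3G), capped or uncapped, were folded for 30 min at 37 °C. High salt was 300 mM KCl and 5 mM MgCl2, low salt 40 mM KCl and 0.1 mM MgCl2; monomer and dimer were parted on a native gel. Kdimer compares mutation frequencies in monomer and dimer, corrected for sequencing errors.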

Sequence of the HIV-1 NL4-3 5' RNA, positions 1 to 437, as numbered in the source:
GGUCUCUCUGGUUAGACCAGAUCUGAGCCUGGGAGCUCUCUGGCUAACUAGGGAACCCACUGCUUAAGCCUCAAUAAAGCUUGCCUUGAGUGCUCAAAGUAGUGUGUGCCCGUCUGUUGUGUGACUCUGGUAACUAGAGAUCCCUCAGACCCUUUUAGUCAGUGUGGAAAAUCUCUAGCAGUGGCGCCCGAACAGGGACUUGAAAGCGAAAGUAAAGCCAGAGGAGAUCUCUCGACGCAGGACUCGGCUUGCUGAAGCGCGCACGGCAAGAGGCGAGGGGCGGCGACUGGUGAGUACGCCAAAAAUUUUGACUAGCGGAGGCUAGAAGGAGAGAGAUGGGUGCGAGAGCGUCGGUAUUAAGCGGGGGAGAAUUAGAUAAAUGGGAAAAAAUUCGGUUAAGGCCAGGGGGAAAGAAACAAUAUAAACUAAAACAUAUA

Values are log2 Kdimer, the median over the changes at each position: higher means that changes there hinder dimer formation, below 0 that they favour it.
One numbering serves 1G, 2G and 3G.
A position is written with its base where known.
Bases beyond 437 are not listed in the source.

position,domain,3G capped high-salt,1G capped high-salt,2G capped low-salt
G317,SL3,0.04,0.19,0.27
G139,PBS,-0.19,-0.08,0.72
C199,PBS,-0.27,-0.16,-0.08
G53,TAR,-0.01,-0.19,-0.23
U141,PBS,-0.24,-0.09,0.19
G68,PolyA,0.12,0.89,0.02
C85,PolyA,-0.66,-0.54,-0.45
A191,PBS,-0.03,0.14,-0.13
U358,none,-0.04,0.01,-0.18
A429,none,0.15,0.01,0.01
514,none,-0.12,-0.01,-0.10
C44,TAR,-0.01,-0.19,-0.07
469,none,-0.01,-0.12,-0.07
485,none,-0.01,-0.05,0.00
468,none,0.01,0.10,-0.07
446,none,0.19,0.18,0.09
460,none,0.07,-0.04,-0.10
U377,none,-0.08,0.07,-0.17
459,none,0.09,0.04,-0.18
U105,U5,-0.28,-0.22,0.12
G212,PBS,-0.98,-0.78,-0.82
G325,SL3,0.44,0.21,0.61
A419,none,-0.01,0.04,-0.03
A161,PBS,0.07,0.02,-0.05

The first 2 entries again:

{"position": "G317", "domain": "SL3", "3G capped high-salt": 0.04, "1G capped high-salt": 0.19, "2G capped low-salt": 0.27}
{"position": "G139", "domain": "PBS", "3G capped high-salt": -0.19, "1G capped high-salt": -0.08, "2G capped low-salt": 0.72}

The measurements come from Ye et al. 2022 (doi:10.1038/s41594-022-00746-2).